Test results from publication PMC6017328, “Tetrasubstituted Imidazolium Salts as Potent Antiparasitic Agents against African and American Trypanosomiases” (Molecules : A Journal of Synthetic Chemistry and Natural …, 2018).

Legend:
[1] = tested on: Bloodstream form T. brucei (strain 221); assay: T. brucei culturing and evaluation of trypanocidal activity (resazurin); assay type: cell-based, Trypanosoma brucei; conditions: selectivity index; ratio of mammalian cell (L6) and parasite EC50 values
Method: Bloodstream form T. brucei (strain 221) were grown as described previously. […] Logarithmically growing T. brucei were diluted to 2.5 × 10^4 mL^−1 and aliquoted into 96-well plates. Then, compounds were added at a range of concentrations and the plates incubated at 37 °C. Each compound was tested in triplicate. Resazurin was added after 48 h and the plates incubated for a further 16 h. The plates were then read in a Spectramax plate reader. Results were analyzed using GraphPad Prism.

[2] = tested on: T. cruzi epimastigotes (CL Brener stain); assay: T. cruzi culturing and evaluation of trypanocidal activity (resazurin); assay type: cell-based, Trypanosoma cruzi; conditions: selectivity index; ratio of mammalian cell (L6) and parasite EC50 values

SMILES	SI (T. brucei) [1]	SI (T. cruzi) [2]
Cc1ccc(-n2c[n+](C(C)(C)C)c(Cc3ccccc3)c2-c2ccccc2)cc1 [Compound 1a]	188	18
COc1ccc(-n2c[n+](-c3ccc(OC)cc3)c(Cc3ccccc3)c2-c2ccc(C)cc2)cc1 [Compound 1b]	118	10
COc1ccc(-n2c[n+](C(C)(C)C)c(Cc3ccc(C)cc3)c2-c2ccc(Cl)cc2)cc1 [Compound 1c]	54	5.6
Cc1ccc(-n2c[n+](-c3ccc4ccccc4c3)c(Cc3ccccc3)c2-c2ccc(Cl)cc2)cc1 [Compound 1d]	56	7.6
Cc1ccc(-n2c[n+](CC(=O)[O-])c(Cc3ccccc3)c2-c2ccccc2)cc1 [Compound 1e]	> 24	
